Measurements as given in patent US6803374B2, “Compounds useful for treating hepatitis C virus” (priority 2001, dated 2004).

Protein sequences, listed by entry. Tags and fused reporters are not part of them. Residues count along the entry.
UniProt Q9WMX2, 2420-2992 limits assumed: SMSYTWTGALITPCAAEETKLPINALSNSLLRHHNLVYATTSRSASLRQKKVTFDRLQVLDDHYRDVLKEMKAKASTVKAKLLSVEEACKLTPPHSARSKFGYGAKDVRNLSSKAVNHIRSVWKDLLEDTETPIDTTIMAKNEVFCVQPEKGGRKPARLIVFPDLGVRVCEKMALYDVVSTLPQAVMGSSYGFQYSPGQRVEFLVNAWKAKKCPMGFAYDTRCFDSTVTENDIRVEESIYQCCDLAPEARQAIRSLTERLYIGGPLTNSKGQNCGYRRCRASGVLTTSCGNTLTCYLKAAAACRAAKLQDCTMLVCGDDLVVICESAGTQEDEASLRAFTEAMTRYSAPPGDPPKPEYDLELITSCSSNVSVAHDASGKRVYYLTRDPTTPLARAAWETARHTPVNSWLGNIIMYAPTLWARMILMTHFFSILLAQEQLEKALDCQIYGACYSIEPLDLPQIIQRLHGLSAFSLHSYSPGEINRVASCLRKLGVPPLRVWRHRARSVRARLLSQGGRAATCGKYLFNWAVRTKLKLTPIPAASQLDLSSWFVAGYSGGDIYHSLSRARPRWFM

Molecular target: HCV NS5B RdRp genotype 1b (Hepatitis C virus genotype 1b, UniProt Q9WMX2)
Experiment: HCV NS5B RdRp enzyme assay
Type: biochemical
Settings: HCV RdRp genotype 1b enzyme, C-terminal 18 aa truncated, average of single point IC50 values
Experimental: HCV NS5B RdRp cloning, expression and purification. The cDNA encoding the NS5B protein of HCV, genotype 1b, was cloned into the pET21a expression vector. The protein was expressed with an 18 amino acid C-terminal truncation to enhance the solubility. The E. coli competent cell line BL21(DE3) was used for expression of the protein. Cultures were grown at 37° C. for ˜4 hours until the cultures reached an optical density of 2.0 at 600 nm. The cultures were cooled to 20° C. and induced with 1 mM IPTG. Fresh ampicillin was added to a final concentration of 50 ug/ml and the cells were grown overnight at 20° C.
Cell pellets (3L) were lysed for purification to yield 15-24 mgs of purified NS5B. The lysis buffer consisted of 20 mM Tris-HCl, pH 7.4, 500 mM NaCl, 0.5% triton X-100, 1 mM DTT, 1 mM EDTA, 20% glycerol, 0.5 mg/ml lysozyme, 10 mM MgCl2, 15 ug/ml deoxyribonuclease I, and Complete TM protease inhibitor tablets (Roche). After addition of the lysis buffer, frozen cell pellets were resuspended using a tissue homogenizer. To reduce the viscosity of the sample, aliquots of the lysate were sonicated on ice using a microtip attached to a Branson sonicator. The sonicated lysate was centrifuged at 100,000×g for 1 hr at 4° C. and filtered through a 0.2 μm filter unit (Corning).
The protein was purified using three sequential chromatography steps: Heparin sepharose CL-6B, polyU sepharose 4B, and Hitrap SP sepharose (Pharmacia). The chromatography buffers were identical to the lysis buffer but contained no lysozyme, deoxyribonuclease I, MgCl2 or protease inhibitor and the NaCl concentration of the buffer was adjusted according to the requirements for charging the protein onto the column. Each column was eluted with a NaCl gradient which varied in length from 5-50 column volumes depending on the column type. After the final chromatography step, the resulting purity of the enzyme is >90% based on SDS-PAGE analysis. The enzyme was aliquoted and stored at −80° C.
HCV NS5B RdRp enzyme assay. HCV RdRp genotype 1b assays were run in assay buffer composed of 20 mM Tris-HCl, pH 7.5, 2.5 mM KCl, 5 mM MgCl2, 1 mM DTT, 1.6 U RNAse inhibitor (Promega N2515), in 96 well plates (Falcon 3918). All compounds were serially diluted in DMSO and diluted further in assay buffer such that the final concentration of DMSO in the assay was 2%. Compounds were serially diluted (3-fold each time) for a 7 point inhibition analysis. HCV RdRp genotype 1b enzyme was used at a final concentration of 28 nM. A polyA template was used at 28 nM, and the oligo-dT12-18 primer was used at 840 nM final concentration. Preannealed primer and template were obtained commercially (Amersham 27-787802). ^3H-UTP was used at 0.125 μCi (1 μM total UTP). Reaction was initiated by the addition of enzyme. Reactions were incubated at 30° C. for 45 min, and stopped by adding 30 ul of 20% ice cold TCA. Plates were chilled for 30 minutes and harvested onto Unifilter-96, GF/B plates (Packard, 6005177) using a Packard FilterMate Cell Harvester. The harvest plates were prewashed 3 times, 200 ul/well, with 100 mM NaPPi. Harvested filters were washed 30 times, 200 ul/well, with distilled water followed by ethanol. Filter plates were dried, and 30 ul/well microscint-20 was added. Plates were read on a Packard Top Count NXT.
The IC50 values for compounds were determined using […] different [I], combined with 7 nM enzyme, 800 ng of the template-primer polyC/oligoG12 (1:5 molar ratio), and 0.7 uM of ^3H GTP containing 1 uCi. The observed fractional activity (fa=vi/vo) was used in the equation IC50=[I]/(1/fa-1) to determine a single point IC50 value. Typically, the single point IC50 values derived from [I] that produced fractional activities in the range of 0.1 to 0.8 relative to the uninhibited control were averaged to calculate the IC50 value for each compound.

Row | Structure (SMILES) | pIC50 | pIC50 (tested form: TFA)
1 | COc1ccc(-c2ccc(C(=O)N3CCC(O)CC3)cc2COc2ccc(-c3nc4cc(-c5nnn[nH]5)ccc4n3C3CCCCC3)cc2)cc1OC | 6.52 | –
2 | COc1ccc(-c2ccc(C(=O)N3CCN(C)CC3)cc2COc2ccc(-c3nc4cc(-c5nnn[nH]5)ccc4n3C3CCCCC3)cc2)cc1OC | 6.37 | –
3 | O=C(c1ccc(-c2ccc(F)c(Cl)c2)c(COc2ccc(-c3nc4cc(-c5nnn[nH]5)ccc4n3C3CCCCC3)cc2)c1)N1CCC(O)CC1 | 6.03 | –
4 | NC(=O)c1ccc(-c2ccc3[nH]cc(C(=O)C(F)(F)F)c3c2)c(COc2ccc(-c3nc4cc(-c5nnn[nH]5)ccc4n3C3CCCCC3)cc2)c1 | 6.48 | –
5 | O=C(NC(Cc1cc2ccccc2[nH]1)C(=O)O)c1ccc(-c2ccc(F)c(Cl)c2)c(COc2ccc(-c3nc4cc(-c5nnn[nH]5)ccc4n3C3CCCCC3)cc2)c1 (centres unmarked) | 6.42 | –
6 | CC(C)(C)OC(=O)C(Cc1cc2ccccc2[nH]1)NC(=O)c1ccc(-c2cccc(O)c2)c(COc2ccc(-c3nc4cc(-c5nnn[nH]5)ccc4n3C3CCCCC3)cc2)c1 (centres unmarked) | 5.89 | –
7 | CC(NC(=O)c1ccc(-c2ccsc2)c(COc2ccc(-c3nc4cc(-c5nnn[nH]5)ccc4n3C3CCCCC3)cc2)c1)C(=O)OC(C)(C)C (centres unmarked) | 5.59 | –
8 | COc1ccc(-c2ccc(C(=O)NC(Cc3cc4ccccc4[nH]3)C(=O)OC(C)(C)C)cc2COc2ccc(-c3nc4cc(-c5nnn[nH]5)ccc4n3C3CCCCC3)cc2)cc1OC (centres unmarked) | 5.66 | –
9 | O=C(O)c1ccc(-c2cc3ccccc3[nH]2)c(COc2ccc(-c3nc4cc(-c5nnn[nH]5)ccc4n3C3CCCCC3)cc2)c1 | 6.92 | –
10 | O=C(NC(Cc1cc2ccccc2[nH]1)C(=O)O)c1ccc(-c2cccc(O)c2)c(COc2ccc(-c3nc4cc(-c5nnn[nH]5)ccc4n3C3CCCCC3)cc2)c1 (centres unmarked) | 6.17 | –
11 | O=C(O)c1ccc(-c2ccc(C(=O)O)cc2COc2ccc(-c3nc4cc(-c5nnn[nH]5)ccc4n3C3CCCCC3)cc2)cc1 | 8.00 | –
12 | CC(C)(C)OC(=O)C(Cc1cc2ccccc2[nH]1)NC(=O)c1ccc(-c2ccsc2)c(COc2ccc(-c3nc4cc(-c5nnn[nH]5)ccc4n3C3CCCCC3)cc2)c1 (centres unmarked) | 5.92 | –
13 | Cn1ccc2cc(-c3ccc(C(=O)O)cc3COc3ccc(-c4nc5cc(-c6nnn[nH]6)ccc5n4C4CCCCC4)cc3)ccc21 | 7.05 | –
14 | O=C(NC(Cc1cc2ccccc2[nH]1)C(=O)O)c1ccc(-c2ccsc2)c(COc2ccc(-c3nc4cc(-c5nnn[nH]5)ccc4n3C3CCCCC3)cc2)c1 (centres unmarked) | 6.24 | –
15 | O=C(O)c1ccc(-c2cncnc2)c(COc2ccc(-c3nc4cc(-c5nnn[nH]5)ccc4n3C3CCCCC3)cc2)c1 [Example 4, 3-[[4-[1-Cyclohexyl-5-(1H-tetrazol-5-yl)-1H-benzimidazol-2-yl]phenoxy]methyl]-4-(5-pyrimidinyl)benzoic acid] | – | 5.98
16 | COc1ncc(-c2ccc(C(=O)O)cc2COc2ccc(-c3nc4cc(-c5nnn[nH]5)ccc4n3C3CCCCC3)cc2)c(OC)n1 | 5.89 | –
17 | CS(=O)(=O)c1ccc(-c2ccc(C(=O)O)cc2COc2ccc(-c3nc4cc(-c5nnn[nH]5)ccc4n3C3CCCCC3)cc2)cc1 | 7.10 | –
18 | CC(C)(C)OC(=O)n1cccc1-c1ccc(C(=O)O)cc1COc1ccc(-c2nc3cc(-c4nnn[nH]4)ccc3n2C2CCCCC2)cc1 | 6.34 | –
19 | COc1ccc(-c2ccc(C(=O)NC(C)C(=O)O)cc2COc2ccc(-c3nc4cc(-c5nnn[nH]5)ccc4n3C3CCCCC3)cc2)cc1OC (centres unmarked) | 6.55 | –
20 | CN1CCN(C(=O)c2ccc(-c3ccc(F)c(Cl)c3)c(COc3ccc(-c4nc5cc(-c6nnn[nH]6)ccc5n4C4CCCCC4)cc3)c2)CC1 | 6.46 | –

pIC50: −log10 of the molar value.
